Assay results from article PMC7156659, “Structural insights into the mechanism and inhibition of transglutaminase-induced ubiquitination by the Legionella effector MavC” (2020).

Tests used:
[1] = biological target: MavC (L. pneumophila)
[2] = biological target: MavC (residues 7–384); test: ITC; conditions: parent: 5.52

Substance | stoichiometry N [1] | Kd [2]
Lpg2149 (from UniProt Q5ZTL2 1-119) | 1 | –
Lpg2149 (from UniProt Q5ZTL2) F11A; F12A | – | 33.3 nM
Lpg2149 (from UniProt Q5ZTL2) F11K; F12D | – | 69.4 nM
Lpg2149 (from UniProt Q5ZTL2) V20A; L23A; L24A | – | 26 nM
Lpg2149 (from UniProt Q5ZTL2) Y15A; K18A; N19A | – | 20.6 nM
